As usually defined, the Kd is the constant that tells how readily two partners part at equilibrium. The low end stands for a tighter complex, the high end for a looser complex.

The record followed here is patent US20240343781A1.

For this assay, the target named is SARS-CoV-2 Spike (SARS-CoV-2) (UniProt P0DTC2). Nature of the assay: SPR. A general note: SPR reads the build-up and loss of mass on a sensor chip optically.

Consider CB6, for which the Kd amounted to 0.183 nM. The value for hACE2-Fc was 5.21 nM.
